Anti-infective test results gathered from many reports (values: NIAID ChemDB through PubChem).

Shared fields: tests in culture

An empty or dashed field is not shown.

structure,strain,dose,cells,method,read-out,agent,value
Nc1nc(=O)n([C@@H]2O[C@H](CO)[C@@H](O)[C@@H]2F)cc1I,OKA,0.01 µg/mL,HELF,plaque count,inhibition,Varicella zoster virus,11%
Cc1cc(-c2ccc(N=Nc3ccc4c(S(=O)(=O)O)cc(S(=O)(=O)O)c(N)c4c3O)c(C)c2)ccc1N=Nc1ccc2c(S(=O)(=O)O)cc(S(=O)(=O)O)c(N)c2c1O,-,50 µg/mL,Human amnion AV3 cells,cytopathic effect,inhibition,Herpes simplex virus,90%
C/C=C\[C@@H]1C[C@H](C(=O)O)N[C@H]1[C@@H](NC(C)=O)[C@](C)(CCC)OC,Isolate G42,-,MDCK,plaque count,EC50,Influenza B virus,<0.01 µg/mL
Oc1ccccc1N=Cc1ccc2c(c1)OCO2,WP,-,-,broth dilution,MIC,Cryptococcus neoformans,5.7 µg/mL
O=c1[nH]c(=O)n([C@H]2C[C@H](O)[C@@H](CO)O2)cc1I,Ohtomo,0.1 µg/mL,HELF,plaque count,inhibition,Varicella zoster virus,29%
O=S(=O)(O)c1cccc2c(O)cccc12,-,50 µg/mL,Human amnion AV3 cells,cytopathic effect,inhibition,Herpes simplex virus,10%
CCOC(=O)c1c(C)nc(NCCCCNc2ccnc3cc(Cl)ccc23)nc1-c1ccccc1,27JF,-,-,-,MIC99,Cryptococcus neoformans,16 µg/mL
C=CCc1ccc(OC)c(OC)c1,2383,-,-,turbidity,MIC90,Candida parapsilosis,350 µg/mL
Cc1cn([C@@H]2O[C@H](CO)[C@@H](O)[C@@H]2O)c(=O)[nH]c1=O,Kawaguchi,0.1 µg/mL,HELF,plaque count,inhibition,Varicella zoster virus,31%
NCCS(=O)(=O)O,-,10 µg/mL,Human amnion AV3 cells,cytopathic effect,inhibition,Herpes simplex virus,0%
CCOC(=O)c1ccc(OCCC2CCN(c3ccc(C)nn3)CC2)cc1,FO2-3607 (sialoprotein receptor group 87),-,KB,neutral red,EC50,Rhinovirus,0.054 µM
Cc1cn([C@@H]2O[C@H](CO)[C@@H](O)[C@@H]2F)c(=O)nc1N,YS,0.01 µg/mL,HELF,plaque count,inhibition,Varicella zoster virus,78%
Oc1ccc(O)c(C=Nc2ccccc2O)c1,96806,-,-,broth dilution,MIC,Cryptococcus neoformans,11.3 µg/mL
CCC(CC)O[C@@H]1C=C(C(=O)O)C[C@H](N)[C@H]1NC(C)=O,H1N1 A/TEXAS/36/91,-,MDCK,-,EC50,Influenza A virus,0.17 µM
O=C(Nc1ccc2cc(S(=O)(=O)[O-])cc(S(=O)(=O)[O-])c2c1)c1ccccc1,-,50 µg/mL,Human amnion AV3 cells,cytopathic effect,inhibition,Herpes simplex virus,45%
CCOC(=O)c1c(C)nc(OCCCNc2ccnc3cc(Cl)ccc23)nc1-c1ccccc1,L24/01,-,-,-,MIC99,Cryptococcus gattii,8 µg/mL
Cc1cc(-c2ccc(N=Nc3c(S(=O)(=O)O)cc4cc(S(=O)(=O)O)cc(N)c4c3O)c(C)c2)ccc1N=Nc1c(S(=O)(=O)O)cc2cc(S(=O)(=O)O)cc(N)c2c1O,TYPE 3,10 µg/mL,Human embryonic lung cells,cytopathic effect,inhibition,Adenovirus,0%
O=c1[nH]c(=O)n([C@H]2C[C@H](O)[C@@H](CO)O2)cc1/C=C/Br,HIRAI,0.001 µg/mL,HELF,plaque count,inhibition,Varicella zoster virus,4%
CCOC(=O)/C=C/[C@H](C[C@@H]1CCNC1=O)NC(=O)[C@@H](CC(=O)[C@@H](NC(=O)c1cc(C)on1)C(C)C)Cc1ccc(F)cc1,Isolate 36,-,OHIO HELA-I,cytopathic effect / visual reading,EC50,Rhinovirus,0.02 µg/mL
O=S(=O)(O)c1cc(O)c2c(O)cc(S(=O)(=O)O)cc2c1,TYPE 3,5 µg/mL,Human embryonic lung cells,cytopathic effect,inhibition,Adenovirus,0%

For reference, 2 entries again:

structure	strain	dose	cells	method	read-out	agent	value
CCOC(=O)c1c(C)nc(OCCCNc2ccnc3cc(Cl)ccc23)nc1-c1ccccc1	L24/01	-	-	-	MIC99	Cryptococcus gattii	8 µg/mL
C/C=C\[C@@H]1C[C@H](C(=O)O)N[C@H]1[C@@H](NC(C)=O)[C@](C)(CCC)OC	Isolate G42	-	MDCK	plaque count	EC50	Influenza B virus	<0.01 µg/mL

Inhibition is in % at the dose shown (toxicity tests: loss of growth or viability). MIC50, MIC90 and the like: level of inhibition, or share of isolates inhibited. ECn: concentration that inhibits the pathogen or its effect by n%. Rows are shuffled and stem from different studies.